Pooled drug test results. Numbers come from NIAID ChemDB, via PubChem.

All rows: tests in culture; organism: HIV-1; method: cytopathic effect / MTT; read-out: EC50

ECn is the concentration giving n% inhibition of infection, replication or growth. An empty or dashed field is not shown. Neighbouring rows are from separate reports.

SMILES,cells,strain or isolate,mutations,result
CC(C)=CCc1c(-c2cc(O)c(O)cc2O)oc2c3c(cc(O)c2c1=O)OC(C)(C)C=C3,MT-4,IIIB,-,>20 µg/mL
Cn1ncc2c1S(=O)(=O)N(Cc1cccc(Cl)c1)C(=O)N2Cc1ccccc1F,MT-4,IIIB,-,>278.5 µM
CC(C)=CCc1c(-c2ccc(O)cc2O)oc2cc(O)cc(O)c2c1=O,MT-4,IIIB,-,>8 µg/mL
CC(=O)c1cccc(C(=O)COCCCCCCCCOP(=O)(OC[C@H]2OC(O)[C@H](O)[C@@H](O)[C@@H]2O)OC[C@H]2O[C@@H](n3cc(C)c(=O)[nH]c3=O)C[C@@H]2N=[N+]=[N-])n1,CEM + CEM-4,LAI,-,0.8 µM
C#C[C@@]1(CO)C=C[C@H](n2cc(C)c(=O)[nH]c2=O)O1,MT-4,IIIB,-,0.07 µM
Nc1nc(Cl)nc2c1ncn2[C@@H]1CC[C@H](CO)S1,MT-2,IIIB,-,>100 µM
Cc1cn([C@@H]2C=C[C@H](COC(=O)OC[C@@H]3C=C[C@H](n4cc(C)c(=O)[nH]c4=O)O3)O2)c(=O)[nH]c1=O,MT-4,IIIB,-,0.24 µM
O=C(/C=C/c1ccc(OC2OC(CO)C(O)C(O)C2OC2OCC(O)(CO)C2O)cc1)c1ccc(O)cc1O,MT-4,IIIB,-,>100 µg/mL
CONc1nc(=O)n([C@H]2C[C@H](N=[N+]=[N-])[C@@H](CO)O2)cc1C,CEM-C113 + CEM/C113,LAV-Bru,-,23.6 µM
Cc1cn([C@H]2C[C@H](N=C(NC#N)Oc3ccccc3)[C@@H](CO)O2)c(=O)[nH]c1=O,CEM,IIIB,-,25 µg/mL
CC(C)=CC1Oc2cc(O)ccc2-c2oc3c4c(cc(O)c3c(=O)c21)OC(C)(C)C=C4,MT-4,IIIB,-,>40 µg/mL
Cc1cn([C@@H]2C=C[C@H](COC(=O)NCCCCNC(=O)OC[C@H]3O[C@@H](n4cc(C)c(=O)[nH]c4=O)C[C@@H]3N=[N+]=[N-])O2)c(=O)[nH]c1=O,MT-4,IIIB,-,96.3 µM
CCOCn1c(Sc2cccc3ccccc23)c(C(C)C)c(=O)[nH]c1=O,MT-4,IIIB,-,0.057 µM
Nc1ccn([C@H]2CC[C@@H](CO)O2)c(=O)n1,MT-4,IIIB,-,0.4 µM
CC(C)=CCc1cc(-c2oc3cc(O)c(CC=C(C)C)c(O)c3c(=O)c2O)ccc1O,MT-4,IIIB,-,>100 µg/mL
CC(C)(C)NC(=O)[C@@H]1CN(Cc2cccnc2)CCN1C[C@@H](O)C[C@@H](Cc1ccccc1)C(=O)N[C@H]1c2ccccc2C[C@H]1O,MT-4,NL4-3,-,0.0243 µM
Cc1ccnc2c1NC(=O)c1cccnc1N2C1CC1,MT-4,-,RT-K103N Y181C,>100 µM
Nc1nc(Cl)c2ncn([C@@H]3CC[C@H](CO)O3)c2n1,MT-2,IIIB,-,>100 µM
CCc1c(Sc2ccc3ccccc3c2Cl)n(COC)c(=O)[nH]c1=O,MT-4,IIIB,-,22.66 µM
Fc1cccc(F)c1C1SCc2nc3ccccc3n21,-,IIIB,RT-Y188H,4.16 µM
Cc1nn(-c2ccccc2)c2n[nH]nc12,MT-4,-,-,>200 µM
Cc1cn([C@H]2C[C@H](N=[N+]=[N-])[C@@H](CO)O2)c(=O)[nH]c1=O,MT-4,AMD3100-resistant,-,0.005 µM
Cc1ccc(Sc2c(C(C)C)c(CO)cn2Cc2ccncc2)cc1,MT-4,IIIB,-,53 µM
CC(C)c1nc(CN(C)C(=O)N[C@H](C(=O)N[C@@H](Cc2ccccc2)C[C@H](O)[C@H](Cc2ccccc2)NC(=O)OCc2cncs2)C(C)C)cs1,MT-4,NL4-3,-,0.064 µM
CCOC(=O)CNc1nc2c(o1)c(C)nn2-c1ccccc1,MT-4,-,-,>20 µM
CC(C)c1c(CO)cn(Cc2ccncc2)c1Sc1cc(F)cc(F)c1,MT-4,IIIB,-,0.4 µM
COc1ccc(S(=O)(=O)O)cc1N=Nc1c(S(=O)(=O)O)cc2cc(Nc3nc(Nc4ccccc4)nc(Nc4cc(C)c(N=Nc5cc(S(=O)(=O)O)cc6cc(S(=O)(=O)O)cc(O)c56)cc4OC)n3)ccc2c1O,MT-4,NL4-3,-,0.6 µg/mL
O=c1[nH]cnc2c1ncn2[C@H]1CC[C@@H](CO)O1,MT-4,NL4-3,-,5.2 µM
Cc1cn([C@@H]2C[C@@H](N=[N+]=[N-])[C@H](COC(=O)NCCCCNC(=O)OC[C@H]3O[C@@H](n4cc(C)c(=O)[nH]c4=O)C[C@@H]3N=[N+]=[N-])O2)c(=O)[nH]c1=O,MT-4,IIIB,-,2.84 µM
N#CCN1C(=O)N(Cc2cccc(F)c2)S(=O)(=O)c2cscc21,MT-4,IIIB,-,0.09 µM
COC(=O)[C@H](C)NP(=O)(OC[C@H]1C/C1=C/n1cnc2c(=O)[nH]c(N)nc21)Oc1ccccc1,MT-2,LAI,-,>76 µM
CCOCn1c(Sc2ccc3ccccc3c2[N+](=O)[O-])c(CC)c(=O)[nH]c1=O,MT-4,IIIB,-,0.099 µM
Nc1ncnc2c1ncn2CCOCP(=O)(O)O,MT-4,RF,-,20 µM
CCOC(=O)c1cn(Cc2ccncc2)c(Sc2cc(C)cc(C)c2)c1C(C)C,MT-4,IIIB,-,10 µM
CC(C)=CCc1c(-c2ccc(O)cc2O)oc2c(CC=C(C)C)c(O)cc(O)c2c1=O,MT-4,IIIB,-,>100 µg/mL
c1cc(CN2CCCNCCNCCCNCC2)ccc1CN1CCCNCCNCCCNCC1,MT-4,NL4-3,-,0.02097 µM
Cn1ncc2c1S(=O)(=O)N(Cc1cccc(Cl)c1)C(=O)N2CC#N,MT-4,IIIB,-,45.6 µM
CCOC(=O)c1cn(Cc2c(F)cccc2F)c(Sc2cc(Cl)cc(Cl)c2)c1C(C)C,MT-4,IIIB,-,>200 µM
C=C(/C=C/P(=O)(O)O)CCn1cnc2c(=O)[nH]c(N)nc21,MT-4,RF,-,49 µM
Cc1c(Sc2ccccc2)n(COCCO)c(=O)[nH]c1=O,CEM(DAY 8) + CEM,IIIB,-,8.3 µM
O=C1c2ccccc2C(=O)N1CCOC(=S)N(C(=O)c1ccco1)c1ccc(Cl)cc1,MT-4,A17,RT-K103N Y181C,>100 µM
O=c1[nH]cnc2c1ncn2[C@H]1CC[C@@H](CO)O1,MT-2,LAI,-,2.5 µM
COc1cc(O)c2c(=O)c(Oc3ccccc3)coc2c1,MT-4,IIIB,-,>100 µg/mL
Cc1nn(-c2ccccc2)c2c1nnn2Cc1ccccc1,MT-4,-,-,>114 µM
O=C1c2ccccc2C(=O)N1CCOC(=S)N(C(=O)c1ccc(Cl)cc1)c1ccc(Cl)cc1,C8166,IIIB,-,<0.02 µM
CCc1c(Sc2cccc3ccccc23)n(COCc2cccc(C)c2)c(=O)[nH]c1=O,MT-4,IIIB,-,0.21 µM
Nc1nc2c(ncn2[C@H]2CC[C@H](CO)O2)c(=O)[nH]1,MT-2,IIIB,-,>100 µM
CCc1c(Sc2cccc3ccccc23)n(COC)c(=O)[nH]c1=O,MT-4,IIIB,-,0.5 µM
Cc1cn([C@H]2C[C@H](Nc3nc(N)nn3C)[C@@H](CO)O2)c(=O)[nH]c1=O,CEM,IIIB,-,55 µg/mL
Cn1ncc2c1S(=O)(=O)N(Cc1cccc(Cl)c1)C(=O)N2Cc1ccc(Br)cc1,MT-4,IIIB,-,>252.3 µM
NC(N)=NCCCC(=O)NCC1OC(OC2C(NC(=O)CCCN=C(N)N)CC(NC(=O)CCCN=C(N)N)C(OC3CC(NC(=O)CCCN=C(N)N)C(O)C(CO)O3)C2O)C(O)C(O)C1O,MT-4,AMD3100-resistant,-,>203 µM
Cc1cn([C@H]2C[C@H](N=[N+]=[N-])[C@@H](COP(=O)(O)OCCCCCCCCN(C)CCN(C)C)O2)c(=O)[nH]c1=O,CEM + CEM-4,LAI,-,0.11 µM
Cc1nn(-c2ccccc2)c2nnn(N)c12,MT-4,-,-,>200 µM
CC(C)CN(C[C@@H](O)[C@H](Cc1ccccc1)NC(=O)O[C@H]1CCOC1)S(=O)(=O)c1ccc(N)cc1,MT-2,GAG-L75R H219 V390 APV-resistant,Gag L75R R409K L449F E468K PR L10F V32I M46I I54M A71V I84V,>2.5 µM
Nc1nc(Cl)nc2c1ncn2[C@H]1CC[C@H](CO)S1,MT-2,IIIB,-,>100 µM
O=C1c2ccccc2C(=O)N1CCOC(=S)N(C(=O)c1ccccc1)c1ccc(Cl)cc1,MT-4,IIIB,RT-K103R V179D P225H,>100 µM
Nc1ccn([C@H]2CO[C@@H](CO)S2)c(=O)n1,MT-4,IIIB,-,20 µM
COC(=O)[C@H](C)NP(=O)(OC[C@H]1C/C1=C\n1cnc2c(N)nc(N)nc21)Oc1ccccc1,MT-2,LAI,-,5.3 µM
O=C1c2ccccc2C(=O)N1CCOC(=S)N(C(=O)c1cccs1)c1ccc(Cl)cc1,C8166,IIIB,-,<0.008 µM
CCn1nnc2c(C)nn(-c3ccccc3)c21,MT-4,-,-,>145 µM
COC(=O)[C@H](C)NP(=O)(OCC1C/C1=C\n1cnc2c(N)ncnc21)Oc1ccccc1,MT-2,LAI,-,0.66 µM
CC(C)=CCc1cc(-c2cc(=O)c3c(O)c(CC=C(C)C)c(O)cc3o2)ccc1O,MT-4,IIIB,-,>10 µg/mL
Cc1nn(-c2ccccc2)c2nn(N)nc12,MT-4,-,-,>154 µM
Nc1nc2ncn([C@@H]3CC[C@H](CO)O3)c2c(=O)[nH]1,MT-2,IIIB,-,>100 µM
C=COC(=O)OC[C@@H]1C=C[C@H](n2cc(C)c(=O)[nH]c2=O)O1,MT-4,IIIB,-,0.085 µM
Nc1ncnc2c1ncn2CCOCP(=O)(O)O,CEM,-,-,3.7 µM
CCNC(=O)n1nnc2c(C)nn(-c3ccccc3)c21,MT-4,-,-,>81 µM
c1cc(CN2CCCNCCNCCCNCC2)ccc1CN1CCCNCCNCCCNCC1,MT-4,NL4-3,D-CA-resistant,0.02 µM
Cn1ncc2c1S(=O)(=O)N(Cc1cccc(Cl)c1)C(=O)N2Cc1ccc(Cl)cc1,MT-4,IIIB,-,>277.2 µM
Cc1cn([C@H]2C=C[C@@H](CO)O2)c(=O)[nH]c1=O,MT-4,IIIB WT,-,0.26 µM
COCOc1cc(O)c(C(=O)/C=C/c2ccccc2)c(OCOC)c1,MT-4,IIIB,-,>20 µg/mL
[N-]=[N+]=N[C@H]1C[C@H](n2ccc(=S)[nH]c2=O)O[C@@H]1CO,CEM-C113 + CEM/C113,LAV-Bru,-,1.5 µM
c1nc[nH]n1,CEM,IIIB,-,>100 µg/mL
Cc1c(O)cccc1C(=O)N[C@@H](CSc1ccccc1)[C@H](O)CN1C[C@H]2CCCC[C@H]2C[C@H]1C(=O)NC(C)(C)C,MT-4,NL4-3,-,0.01835 µM

A second listing of 6 rows from above:

Nc1ccn([C@H]2CC[C@@H](CO)O2)c(=O)n1 ; cells: MT-4 ; strain or isolate: IIIB ; result: 0.4 µM
CC(C)c1nc(CN(C)C(=O)N[C@H](C(=O)N[C@@H](Cc2ccccc2)C[C@H](O)[C@H](Cc2ccccc2)NC(=O)OCc2cncs2)C(C)C)cs1 ; cells: MT-4 ; strain or isolate: NL4-3 ; result: 0.064 µM
[N-]=[N+]=N[C@H]1C[C@H](n2ccc(=S)[nH]c2=O)O[C@@H]1CO ; cells: CEM-C113 + CEM/C113 ; strain or isolate: LAV-Bru ; result: 1.5 µM
O=c1[nH]cnc2c1ncn2[C@H]1CC[C@@H](CO)O1 ; cells: MT-2 ; strain or isolate: LAI ; result: 2.5 µM
Cc1cn([C@@H]2C=C[C@H](COC(=O)OC[C@@H]3C=C[C@H](n4cc(C)c(=O)[nH]c4=O)O3)O2)c(=O)[nH]c1=O ; cells: MT-4 ; strain or isolate: IIIB ; result: 0.24 µM
Cc1ccc(Sc2c(C(C)C)c(CO)cn2Cc2ccncc2)cc1 ; cells: MT-4 ; strain or isolate: IIIB ; result: 53 µM